Results of unrelated studies side by side (data: NIAID ChemDB).

Common to all: tests in culture; species: HIV-1; endpoint: EC50

An empty or dashed field is not shown.

smiles	read by	strain	mutations	cell line	value
CC[C@H]1C(=O)Nc2ccc(F)cc2N1C(=O)OC(C)C	cytopathic effect	Q-1 (RT T139K Y181C Y188D/Y)	RT-T139K Y181C Y188D/Y	CEM	0.036 µg/mL
CCc1c(CC2CCCCC2)nc(SCC(=O)c2ccccc2)[nH]c1=O	ELISA	MN	-	C8166	0.00562 µM
CCN[C@H]1CO[C@@H]2OCC[C@H](OC(=O)N[C@@H](Cc3ccccc3)[C@H](O)CN(CC(C)C)S(=O)(=O)c3ccc4nc(NC5CC5)sc4c3)[C@@H]21	p24 / luminescence	NL4-3	L10F L33I M36I M46I I54V K55R I62V L63P A71V G73S V82T	MT-4	0.0038 µM
Cc1ccc(S(=O)(=O)N(CC(C)C)C[C@@H](O)[C@H](Cc2ccccc2)NC(=O)O[C@H]2CO[C@H]3OCC[C@H]32)cc1	p24 / ELISA	IIIB	K112M K113E V128I M200I H219P	MT-2	0.008 µM
COC(=O)N[C@H](C(=O)N[C@@H](Cc1ccccc1)[C@@H](O)CN(Cc1ccc(-c2ccccn2)cc1)NC(=O)[C@@H](NC(=O)OC)C(C)(C)C)C(C)(C)C	p24 / luminescence	NL4-3	-	MT-4	0.0047 µM
CC(=O)c1ccc(C)cc1NC(C(N)=O)c1c(Cl)cccc1Cl	MTT	IIIB	RT-V189I T240I	MAGI	1.8 µM
CCOCn1c(Cc2ccccc2)c(C(C)C)c(=O)[nH]c1=O	cytopathic effect	Y-1 (RT-K103N)	RT-K103N	CEM	0.6 µg/mL
Cc1cn([C@H]2C[C@H](N=[N+]=[N-])[C@@H](CO)O2)c(=O)[nH]c1=O	p24 / ELISA	IIIB	I401T	MT-2	0.153 µM
CC(C)(C)NC(=O)[C@@H]1C[C@@H]2CCCC[C@@H]2CN1C[C@@H](O)[C@H](Cc1ccccc1)NC(=O)[C@H](CC(N)=O)NC(=O)c1ccc2ccccc2n1	-	VAU (PR-L10I K20C M36I L63A I64V A71V)	PR-L10I K20C M36I L63A I64V A71V	PBMC	0.013 µM
CC[C@H](C)[C@H](NC(=O)c1ccccc1SSc1ccccc1C(=O)N[C@H](C(=O)O)[C@@H](C)CC)C(=O)O	p24 / RT activity	BR /93/020	-	PBMC	7.8 µM
CCc1c(C(=O)c2cc(C)cc(C)c2)n(CC2CC=CC2)c(=O)[nH]c1=O	cytopathic effect / XTT	4xAZT(RT-D67N K70R T215Y K219Q)	RT-D67N K70R T215Y K219Q	CEM + CEM-SS	0.0006 µM
O=c1[nH]cnc2c1ncn2[C@H]1CC[C@@H](CO)O1	plaque count	RTMC (RT-V 75A)	RT-V75A	CD4+HELA + HeLa	4 µM
Cc1cn([C@H]2C=C[C@@H](CO)O2)c(=O)[nH]c1=O	recombinant virus assay	Clinical isolate	A62V/T69ins/V75I/A98G/K103S/G190A	MT-2	6.24 µM
CC(C)=CCN1Cc2cc(Cl)cc3[nH]c(=S)n(c23)C[C@@H]1C	-	LAI	-	PBMC	0.02 µM
COC(=O)N[C@H](C(=O)N[C@@H](Cc1ccccc1)[C@@H](O)CN(Cc1ccc(-c2ccccn2)cc1)NC(=O)[C@@H](NC(=O)OC)C(C)(C)C)C(C)(C)C	ATP	IIIB	8374-P36 GS-8374-resistant	MT-2	0.01 µM
CCc1c(Sc2ccccn2)n(COCc2ccccc2)c(=O)[nH]c1=O	cytopathic effect / XTT	NL4-3	RT-K103N	CEM + CEM-SS	0.38 µM
C/C=C/CSc1cc(NC(=S)c2ccsc2C)ccc1Cl	XTT	Costatolide-resistant (RT L100I T139I)	RT-L100I T139I	CEM + CEM-SS	>2 µM
C1=Nc2ccccc2SN1	cytopathic effect / XTT	IIIB HEPT-resistant (RT P236L)	RT-P236L	CEM + CEM-SS	5 µM
CC(C)=CCOc1cc(NC(=S)c2ccoc2C)ccc1Cl	cytopathic effect	A-0 (RT-L100I)	RT-L100I	CEM	0.0082 µg/mL
Cc1cn([C@H]2C[C@H](N=[N+]=[N-])[C@@H](CO)O2)c(=O)[nH]c1=O	cytopathic effect / XTT	IIIB	RT-K103N Y181C	CEM + CEM-SS	0.01 µM
CC(C)CN(C[C@@H](O)[C@H](Cc1ccccc1)NC(=O)O[C@H]1CCO[C@H]2OCC[C@H]21)S(=O)(=O)c1ccc2nc(NC3CC3)sc2c1	p24 / luminescence	NL4-3	L23I E34Q K43I M46I I50L G51A L63P A71V V82A T91A	MT-4	0.0002 µM
Cc1ccnc2c1NC(=O)c1cccnc1N2C1CC1	cytopathic effect / XTT	4XAZT+L100I (RT D67N K70R L100I T215Y K219Q)	RT-D67N K70R L100I T215Y K219Q	CEM + CEM-SS	0.03 µM
Cc1ccnc2c1NC(=O)c1cccnc1N2C1CC1	-	MVP5180 (RT A98G K103R)	RT-A98G K103R	PBMC	0.66 µM
Cc1cccc(C)c1OCC(=O)N[C@@H](Cc1ccccc1)[C@@H](O)C[C@H](Cc1ccccc1)NC(=O)[C@H](C(C)C)N1CCCNC1=O	p24 / luminescence	ERS104pre	L63P	PBMC	0.032 µM
O=S(=O)(c1ccccc1)c1ccccc1	XTT	Calanolide A-resistant (RT T139I)	RT-T139I	CEM + CEM-SS	16 µM
Nc1nc(=O)n([C@@H]2CS[C@H](CO)O2)cc1F	recombinant virus assay	Clinical isolate	A62V/V75I/F77L/F116L/Q151M/M184V	MT-2	>13.3 µM
CC(C)CN(C[C@@H](O)[C@H](Cc1ccc(F)cc1)NC(=O)O[C@H]1CCO[C@H]2OCC[C@H]21)S(=O)(=O)c1ccc2nc(NC(C)C)sc2c1	p24 / luminescence	92UG037	-	PBMC	0.0013 µM
Cc1cn([C@H]2C[C@H](N=[N+]=[N-])[C@@H](CO)O2)c(=O)[nH]c1=O	XTT	Diphenyl sulfone-resistant (RT-Y181C)	RT-Y181C	CEM + CEM-SS	0.01 µM
CN[C@H]1CO[C@@H]2OCC[C@H](OC(=O)N[C@@H](Cc3cccc(OC)c3)[C@H](O)CN(CC(C)C)S(=O)(=O)c3ccc4nc(NC(C)C)sc4c3)[C@@H]21	p24 / luminescence	NL4-3	L10F V32I L33F M46L I54M A71V	MT-4	0.025 µM
Nc1ccn([C@H]2CC[C@@H](CO)O2)c(=O)n1	plaque count	HXB2	RT-V75T T215Y	CD4+HELA + HeLa	1.1 µM
CCCc1cc(=O)oc2c3c(c4c(c12)OC(C)(C)C=C4)O[C@H](C)[C@@H](C)[C@@H]3O	XTT	NL4-3	RT-T139I	CEM + CEM-SS	1.7 µM
CN1N=C(N)c2cn([C@@H]3O[C@H](COP(=O)(O)O)[C@@H](O)[C@H]3O)c3ncnc1c23	XTT	KELL 40	-	CEM + CEM-SS	>2.8 µM
CN[C@H]1CO[C@@H]2OCC[C@H](OC(=O)N[C@@H](Cc3ccccc3)[C@H](O)CN(CC(C)C)S(=O)(=O)c3ccc4nc(NC5CC5)sc4c3)[C@@H]21	p24 / luminescence	NL4-3	L10I I15V K20R L24I V32I M36I M46I L63P K70Q V82A I84V L89M	MT-4	0.0027 µM
CC(C)OC(=O)OCOP(=O)(CO[C@H](C)Cn1cnc2c(N)ncnc21)OCOC(=O)OC(C)C	GFP	NL4-3	A114S/M184V	TZM-gfp	0.04 µM
Fc1cccc(F)c1C1SCc2nc3ccccc3n21	XTT	Dihydrocostatolide-resistant (RT-L100I)	RT-L100I	CEM + CEM-SS	22.8 µM
O=C1N(Cc2ccc(CO)cc2)[C@H](Cc2ccccc2)[C@H](O)[C@@H](O)[C@@H](Cc2ccccc2)N1Cc1ccc(CO)cc1	virus yield	IIIB	-	H9	<0.14 µM

Repeating the first 3 entries:

{"smiles": "CC[C@H]1C(=O)Nc2ccc(F)cc2N1C(=O)OC(C)C", "read by": "cytopathic effect", "strain": "Q-1 (RT T139K Y181C Y188D/Y)", "mutations": "RT-T139K Y181C Y188D/Y", "cell line": "CEM", "value": "0.036 µg/mL"}
{"smiles": "CCc1c(CC2CCCCC2)nc(SCC(=O)c2ccccc2)[nH]c1=O", "read by": "ELISA", "strain": "MN", "cell line": "C8166", "value": "0.00562 µM"}
{"smiles": "CCN[C@H]1CO[C@@H]2OCC[C@H](OC(=O)N[C@@H](Cc3ccccc3)[C@H](O)CN(CC(C)C)S(=O)(=O)c3ccc4nc(NC5CC5)sc4c3)[C@@H]21", "read by": "p24 / luminescence", "strain": "NL4-3", "mutations": "L10F L33I M36I M46I I54V K55R I62V L63P A71V G73S V82T", "cell line": "MT-4", "value": "0.0038 µM"}

ECn: concentration that inhibits the pathogen or its effect by n%. Neighbouring rows are from separate reports.